Compound potency records, mixed from different reports. Data source: NIAID ChemDB in PubChem.

All rows: whole-cell or culture tests; agent: HIV-1; measure: EC90

Conditions beyond the fields shown may differ between rows.

compound,cell line,mutations,strain or isolate,setting,result
O=C1N(Cc2cccnc2)[C@H](Cc2ccccc2)[C@H](O)[C@@H](O)[C@@H](Cc2ccccc2)N1Cc1cccc(-c2ccn[nH]2)c1,MT-2,-,RF,-,0.094 µM
Cc1cn([C@H]2C[C@H](N=[N+]=[N-])[C@@H](CO)O2)c(=O)[nH]c1=O,PBMC,-,xxBRU,-,0.01 µM
CC(C)(O)c1ccc(CN2C(=O)N(Cc3ccc(C(C)(C)O)cc3)[C@H](Cc3ccccc3)[C@H](O)[C@@H](O)[C@H]2Cc2ccccc2)cc1,MT-2/MT-4 + MT-2,-,RF,-,8.04 µM
CCCCCC[C@@H]1[C@H](O)[C@@H](O)[C@@H](CCCCCC)N(Cc2cccc(C(=O)Nc3nc4ccccc4[nH]3)c2)C(=O)N1Cc1cccc(C(=O)Nc2nc3ccccc3[nH]2)c1,MT-2,-,RF,3 d,0.086 µM
O=C1N(Cc2cccc(CO)c2)[C@@H](CCc2ccccc2)[C@H](O)[C@H](Cc2ccccc2)N1Cc1cccc(CO)c1,MT-2,-,RF,-,>5 µM
O=C1N(Cc2cccc(CO)c2)[C@H](Cc2ccccc2)[C@H](O)[C@@H](O)[C@@H](Cc2ccccc2)N1Cc1cccc(CO)c1,MT-2/MT-4 + MT-2,-,RF,-,0.0388 µM
CC(O)c1cccc(CN2C(=O)N(Cc3cccc(C(C)O)c3)[C@H]3CS[C@@H](CCCCCO)[C@H]32)c1,MT-2,-,RF,-,98 µM
Nc1ccn([C@@H]2S[C@H](CO)C=C2F)c(=O)n1,PBMC,RT-M184V,3TC-resistant (RT M184V),-,~125 µM
O=[P@]12OC([C@@H](O)[C@@H](Cc3ccccc3)N1Cc1ccc(O)cc1)[C@@H](Cc1ccccc1)N2Cc1ccc(O)cc1,MT-2,-,RF,-,1.258 µM
Nc1n[nH]c2ccc(CN3C(=O)N(Cc4ccc5ccccc5c4)[C@H](Cc4ccccc4)[C@H](O)[C@@H](O)[C@H]3Cc3ccccc3)cc12,MT-2,PR-S184V,RF,-,0.43 µM
Nc1cccc(CN2C(=O)N(Cc3ccc4[nH]nc(-c5ccsc5)c4c3)[C@H](Cc3ccccc3)[C@H](O)[C@@H](O)[C@H]2Cc2ccccc2)c1,MT-2,PR-M46I L63P A71V V82F I84V,Ritonavir-resistant (PR M46I L63P A71V V82F I84V),-,>5 µM
O=C(Nc1nc2ccccc2[nH]1)c1cccc(CN2C(=O)N(Cc3cccc(C(=O)Nc4nc5ccccc5[nH]4)c3)[C@H](C3CCCCC3)[C@H](O)[C@@H](O)[C@H]2C2CCCCC2)c1,MT-2,-,RF,3 d,0.014 µM
O=C1N(Cc2cccc(-c3nn[nH]n3)c2)[C@H](Cc2ccccc2)[C@H](O)[C@@H](O)[C@@H](Cc2ccccc2)N1Cc1cccc(-c2nn[nH]n2)c1,MT-2,-,RF,-,70 µM
[N-]=[N+]=N[C@H]1[C@@H](O)[C@H](n2ccc(N)nc2=O)O[C@@H]1CO,PBMC,-,-,-,>100 µM
CCCCCN1C(=O)N(Cc2ccc3[nH]nc(N)c3c2)[C@H](Cc2ccccc2)[C@H](O)[C@@H](O)[C@H]1Cc1ccccc1,MT-2,-,RF,-,0.203 µM
CCCN(C(=O)OCc1ccc([N+](=O)[O-])cc1)C1CCN(CC[C@H](CN(C)S(=O)(=O)c2ccccc2)c2ccccc2)CC1,MAGI + MAGI-CCR5,-,YU-2 (M-tropic),-,0.02 µM
Cc1c(O)cccc1C(=O)N[C@@H](Cc1ccccc1)[C@H](O)C(=O)N1C[C@@H](Cl)C[C@H]1C(=O)NC(C)(C)C,CEM,-,IIIB,-,0.11 µM
O=[P@]12O[C@@H]([C@@H](O)[C@@H](Cc3ccccc3)N1Cc1ccc3ccccc3c1)[C@@H](Cc1ccccc1)N2Cc1ccc2ccccc2c1,MT-2,-,RF,-,>80 µM
CCCN(C(=O)OCc1ccccc1)C1CCN(CCC(CN(C)S(=O)(=O)c2ccccc2)c2ccccc2)CC1,MAGI + MAGI-CCR5,-,BaL,-,>0.3 µM
Nc1nc(N)c2ncn([C@H]3CC[C@@H](CO)O3)c2n1,-,-,-,-,29 µM
CC[C@H](C)[C@H](NC(=O)Cc1ccccn1)C(=O)N[C@@H](Cc1ccccc1)[C@@H](O)[C@H](O)[C@H](Cc1ccccc1)NC(=O)[C@@H](NC(=O)Cc1ccccn1)[C@@H](C)CC,MT-2,-,RF,-,0.55 µg/mL
[N-]=[N+]=NC1=C[C@H](n2ccc(N)nc2=O)O[C@@H]1CO,PBMC,-,-,-,>100 µM
CC(C)CN(C[C@@H](O)[C@H](Cc1ccccc1)NC(=O)O[C@H]1CCOC1)S(=O)(=O)c1ccc(N)cc1,CEM + CEM-SS,-,IIIB,-,0.026 µM
CC(C)(C)NC(=O)[C@@H]1C[C@H](Cl)CN1C(=O)[C@@H](O)[C@H](Cc1ccccc1)NC(=O)OC1CCOC1,CEM,-,IIIB,-,4.8 µM
Nc1nc(N)c2ncn([C@H]3CO[C@@H](CO)O3)c2n1,MT-2,-,-,-,29 µM
CC(C)CN(C[C@@H](O)[C@H](Cc1ccccc1)NC(=O)[C@@H](NC(=O)CNCc1cccc(F)c1)C(C)(C)C)S(=O)(=O)c1ccc(N)cc1,MT-2,-,RF,-,0.0057 µM
COC(=O)CCCC[C@H]1[C@@H]2[C@H](CS1(=O)=O)N(Cc1cccc(Br)c1)C(=O)N2Cc1cccc(Br)c1,MT-2,-,RF,-,80 µM
C[C@@]1(O)[C@H](O)[C@@H](CO)O[C@H]1n1c2ncnc(N)c2c2c(N)ncnc21,PBMC,-,LAI,-,≥100 µM
COc1cc(C[C@@H]2[C@H](O)[C@@H](O)[C@@H](Cc3cc(OC)cc(OC)c3)N(Cc3ccccc3)C(=O)N2Cc2ccccc2)cc(OC)c1,MT-2,-,RF,-,>5 µM
CC(C)[C@H](NC(=O)OC(C)(C)C)C(=O)N[C@@H](Cc1ccccc1)[C@H]1OP(c2ccccc2)(c2ccccc2)(c2ccccc2)O[C@@H]1[C@H](Cc1ccccc1)NC(=O)[C@@H](NC(=O)OC(C)(C)C)C(C)C,MT-2,-,RF,-,50 µg/mL
O=[P@]12O[C@@H]([C@@H](O)[C@@H](Cc3ccccc3)N1Cc1ccccc1)[C@@H](Cc1ccccc1)N2Cc1ccccc1,MT-2,-,RF,-,>95.3 µM
[N-]=[N+]=N[C@H]1[C@@H](O)[C@H](n2cnc3c(N)ncnc32)O[C@@H]1CO,PBMC,-,-,-,48.3 µM
C[C@@]1(O)[C@H](O)[C@@H](CO)O[C@H]1n1c2ncnc(N)c2c2c(=O)[nH]c(=S)[nH]c21,PBMC,-,LAI,-,>100 µM
CCC[C@]1(CCc2ccccc2)CC(O)=C([C@H](CC)c2cccc(NS(=O)(=O)c3ccc(C(F)(F)F)cn3)c2)C(=O)O1,H9,-,IIIB,-,0.84 µM
C[C@]1(/C=C/P(=O)(O)O)CO[C@@H](n2cnc3c(=O)[nH]c(N)nc32)C1,PBMC,-,LAI,-,95 µM
CCCC1(CCc2ccccc2)CC(O)=C(C(c2cccc(NS(=O)(=O)c3cn(C)cn3)c2)C(C)(C)C)C(=O)O1,H9,-,IIIB,-,0.3 µM
Cc1cn([C@H]2C[C@H](N=[N+]=[N-])[C@@H](CO)O2)c(=O)[nH]c1=O,PBMC,-,LAI,-,>100 µM
COC(=O)c1ccc(CN2C(=O)N(Cc3ccc(C(=O)OC)cc3)[C@H](Cc3ccccc3)[C@H](O)[C@H]2CCc2ccccc2)cc1,MT-2,-,RF,-,>5 µM
CC[C@@H]1[C@H](O)[C@@H](O)[C@@H](Cc2ccccc2)N(Cc2cccc(C(=O)Nc3nc4ccccc4[nH]3)c2)C(=O)N1Cc1cccc(C(=O)Nc2nc3ccccc3[nH]2)c1,MT-2,-,RF,3 d,0.026 µM
Cc1cn([C@H]2C[C@H](N=[N+]=[N-])[C@@H](CO)O2)c(=O)[nH]c1=O,MONO/MACRO + Monocytes/macrophages,-,BaL,-,0.26 µg/mL
CCC[C@@]1(CCc2ccccc2)CC(O)=C([C@@H](CC)c2cccc(NS(=O)(=O)c3ccc(C(F)(F)F)cn3)c2)C(=O)O1,H9,-,IIIB,-,1.8 µM
CC(C)(C)NC(=O)[C@@H]1CN(Cc2cccnc2)CCN1C[C@@H](O)C[C@@H](Cc1ccccc1)C(=O)N[C@H]1c2ccccc2C[C@H]1O,CEM + CEM-SS,-,IIIB,-,0.027 µM
CCCC1(CCC)CC(O)=C(C(CC)c2cccc(NS(=O)(=O)c3ccc(C(F)(F)F)cn3)c2)C(=O)O1,H9,-,IIIB,-,0.76 µM
C[C@]1(CCP(=O)(O)O)CO[C@@H](n2cnc3c(N)ncnc32)C1,PBMC,-,LAI,-,80 µM
O=C(Nc1nc2ccccc2[nH]1)c1cccc(CN2C(=O)N(Cc3cccc(C(=O)Nc4nc5ccccc5[nH]4)c3)[C@H](Cc3ccc(O)cc3)[C@H](O)[C@@H](O)[C@H]2Cc2ccc(O)cc2)c1,MT-2,-,RF,3 d,0.035 µM
CCc1c(O)cccc1C(=O)N[C@@H](Cc1ccccc1)[C@H](O)C(=O)N1C[C@@H](Cl)C[C@H]1C(=O)NC(C)(C)C,CEM,-,IIIB,-,0.12 µM
CCC[C@@H](c1ccc(C(F)(F)F)cc1)N1CCN(C2(C)CCN(C(=O)c3c(C)ncnc3C)CC2)C[C@@H]1C,PBMC,-,JRFL Clinical isolates,-,0.00001 µM
CCC(C1=C(O)CC(CCC2CC2)(CCC2CC2)OC1=O)c1cccc(NS(=O)(=O)c2ccc(C#N)cn2)c1,H9,-,IIIB,-,1 µM
O=c1[nH]cnc2c1ncn2[C@H]1CC[C@@H](CO)O1,MT-2,-,-,-,18 µM

Repeating the first 4 entries:

| compound | cell line | mutations | strain or isolate | setting | result |
|---|---|---|---|---|---|
| O=C1N(Cc2cccnc2)[C@H](Cc2ccccc2)[C@H](O)[C@@H](O)[C@@H](Cc2ccccc2)N1Cc1cccc(-c2ccn[nH]2)c1 | MT-2 | - | RF | - | 0.094 µM |
| Cc1cn([C@H]2C[C@H](N=[N+]=[N-])[C@@H](CO)O2)c(=O)[nH]c1=O | PBMC | - | xxBRU | - | 0.01 µM |
| CC(C)(O)c1ccc(CN2C(=O)N(Cc3ccc(C(C)(C)O)cc3)[C@H](Cc3ccccc3)[C@H](O)[C@@H](O)[C@H]2Cc2ccccc2)cc1 | MT-2/MT-4 + MT-2 | - | RF | - | 8.04 µM |
| CCCCCC[C@@H]1[C@H](O)[C@@H](O)[C@@H](CCCCCC)N(Cc2cccc(C(=O)Nc3nc4ccccc4[nH]3)c2)C(=O)N1Cc1cccc(C(=O)Nc2nc3ccccc3[nH]2)c1 | MT-2 | - | RF | 3 d | 0.086 µM |

An empty or dashed field is not shown. ECn: concentration that inhibits the pathogen or its effect by n%.